Values of other authors in publication PMC8753592, “Long-acting capsid inhibitor protects macaques from repeat SHIV challenges” (Nature, 2021).

How the values were obtained:
Conditions in all cases: ref Yant et al, Nat.Med, 2019;[4]; cited from earlier work
CA mutant Q67H = test system: CA mutant Q67H
CA mutant N74D = test system: CA mutant N74D
CA mutant L56I = test system: CA mutant L56I
CA mutant M66I = test system: CA mutant M66I

## CC(C)(C#Cc1ccc(-c2ccc(Cl)c3c(NS(=O)(=O)C4CC4)nn(CC(F)F)c23)c([C@H](Cc2cc(F)cc(F)c2)NC(=O)Cn2nc(C(F)F)c3c2C(F)(F)[C@@H]2C[C@H]32)n1)S(C)(=O)=O [GS-CA1]
CA mutant Q67H
  In vitro fold-resistance (CA mutant/wild-type), Q67H: 7.7
CA mutant N74D
  In vitro fold-resistance (CA mutant/wild-type), N74D: 18
CA mutant L56I
  In vitro fold-resistance (CA mutant/wild-type), L56I: 666
CA mutant M66I
  In vitro fold-resistance (CA mutant/wild-type), M66I: 2,272
